This is a selection; strong and weak results do not stand in their true shares. Some salts or complexes appear as unconnected parts, following the source record. Active and inactive are the calls of the source.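 The calls were made as follows: active = inhibition reaching at least a set limit at 20 µM in the primary screen (cut at about 59% in these data); inactive = the rest.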
What follows are compounds tested on glucose-6-phosphate dehydrogenase-6-phosphogluconolactonase (Plasmodium falciparum 3D7) (assay: inhibition of malaria parasite G6PD (PfGluPho) – biochemical, fluorescence intensity, uHTS, primary screen (AID 504690;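 also: 0% = DMSO wells with substrate and 100% = DMSO wells lacking glucose-6-phosphate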)). Settings: PfGluPho enzyme, NADPH resazurin-diaphorase fluorescence; at 20 µM; active compounds read high.
With CCOC(=O)C(CC)C1=NC(C)(C)Cc2ccccc21.O=[N+]([O-])c1cc([N+](=O)[O-])c(O)c([N+](=O)[O-])c1 (stereo not given) the inhibition was inactive: -12.2%.
CC1=C2N=C(C=C3N=C(C(C)=C4[N-][C@@](C)([C@@H]5N=C1[C@](C)(CCC(=O)NC[C@@H](C)OP(=O)([O-])O[C@H]1[C@@H](O)[C@@H](n6cnc7cc(C)c(C)cc76)O[C@@H]1CO)[C@H]5CC(N)=O)[C@@](C)(CC(N)=O)[C@@H]4CCC(N)=O)[C@@](C)(CC(N)=O)[C@@H]3CCC(N)=O)C(C)(C)[C@@H]2CCC(N)=O.[C-]#N.[Co+3] was tested, and the inhibition was inactive: -2.21%.
For O=[N+]([O-])c1cc([N+](=O)[O-])c(Nc2nnnn2CCO)c([N+](=O)[O-])c1, the inhibition was inactive: -4.7%.
With CCCOc1ccc(NP(C)(=O)Oc2ccc(Cl)cc2)cc1 (stereo not given) the inhibition was inactive: 6.21%.
For CP(=O)(Nc1ccc(SC(F)(F)F)cc1)Oc1ccccc1 (stereo not given), the inhibition was inactive: 6.04%.
With CN1CCCCC1COC(=O)C1(O)c2ccccc2CCc2ccccc21 (stereo not given) the inhibition was inactive: 3.36%.
With COc1ccccc1OP(C)(=O)Nc1c(C)cccc1C (stereo not given) the inhibition was inactive: -2.33%.
O=[N+]([O-])c1cc([N+](=O)[O-])c(-n2nnc3ccccc32)c([N+](=O)[O-])c1 was tested, and the inhibition was inactive: -28%.
In the case of Cc1nc2ccc3ccccc3c2s1.O=[N+]([O-])c1cc([N+](=O)[O-])c(O)c([N+](=O)[O-])c1, the inhibition is reported as inactive: 8.8%.
With O=[N+]([O-])c1cc([N+](=O)[O-])c(-c2cnn(-c3ccccc3)c2)c([N+](=O)[O-])c1 the inhibition was inactive: 33%.
CCOC(=O)c1ccc(NP(C)(=O)Oc2cc(C)cc(C)c2)cc1 (stereo not given) was tested, and the inhibition was inactive: 1.17%.
Cc1cc(C)cc(OP(C)(=O)Nc2ccc(C)cc2C)c1 (stereo not given) was tested, and the inhibition was inactive: -13.8%.
COc1ccccc1OP(C)(=O)Nc1cccc(Br)c1 (stereo not given) was tested, and the inhibition was inactive: -3.2%.
Cc1ccc(C)c(NP(C)(=O)Oc2ccccc2)c1 (stereo not given) was tested, and the inhibition was inactive: -12.2%.
Cc1cc(C)cc(OP(C)(=O)Nc2ccccn2)c1 (stereo not given) was tested, and the inhibition was inactive: -8.36%.
For CP(=O)(Nc1cccc(Br)c1)Oc1ccccc1 (stereo not given), the inhibition was inactive: -5.61%.
O=C(O)c1cccc(Nc2c([N+](=O)[O-])cc([N+](=O)[O-])cc2[N+](=O)[O-])c1 was tested, and the inhibition was inactive: -26.3%.
With CC1=NCCc2c1[nH]c1ccccc21.O=[N+]([O-])c1cc([N+](=O)[O-])c(O)c([N+](=O)[O-])c1 the inhibition was inactive: -7.89%.
For O=[N+]([O-])c1ccc2c(c1)C=Nc1ccccc1O2, the inhibition was inactive: 41.7%.
Cc1cccc(C)c1OP(C)(N)=O (stereo not given) was tested, and the inhibition was inactive: -9.63%.
For CC(C)(C)c1ccc(OP(C)(=O)Nc2ccc(SC(F)(F)F)cc2)cc1 (stereo not given), the inhibition was inactive: 7.29%.
With O=[N+]([O-])c1cc([N+](=O)[O-])c(Nc2cccnc2)c([N+](=O)[O-])c1 the inhibition was inactive: 29.5%.
With Cc1cc(C)cc(OP(C)(N)=O)c1 (stereo not given) the inhibition was inactive: -5.87%.
With COc1ccc(OP(C)(=O)Nc2cccc(F)c2)cc1 (stereo not given) the inhibition was inactive: -11.3%.
For COc1ccccc1OP(C)(=O)Nc1cc(Cl)ccc1C (stereo not given), the inhibition was inactive: 15.7%.
For Cc1ccc(NP(C)(=O)Oc2ccccc2)c(C)c1 (stereo not given), the inhibition was inactive: -4.17%.
With COc1ccccc1OP(C)(=O)Nc1ccc(C)cc1 (stereo not given) the inhibition was inactive: -11.1%.
In the case of CCOC(=O)c1ccc(NP(C)(=O)Oc2ccccc2)cc1 (stereo not given), the inhibition is reported as inactive: -0.56%.
With CCN(CC)CCCOC(=O)C(O)(c1ccccc1)c1ccccc1 the inhibition was inactive: -1.93%.
With Cc1cc(C)cc(OP(C)(=O)Nc2ccc(SC(F)(F)F)cc2)c1 (stereo not given) the inhibition was inactive: 7.91%.
With CP(=O)(NC(=O)Nc1ccccc1)Oc1ccccc1 (stereo not given) the inhibition was inactive: 4.19%.
In the case of CCc1ccc(OP(C)(=O)N2CCN(c3ccc([N+](=O)[O-])cc3)CC2)cc1 (stereo not given), the inhibition is reported as inactive: 17.7%.
For CP(=O)(Oc1ccccc1)OC(c1ccccc1)C(F)(F)F (stereo not given), the inhibition was inactive: 2.59%.
For CP(=O)(Nc1ccc(SC(F)(F)F)cc1)Oc1ccc(Cl)cc1 (stereo not given), the inhibition was inactive: 9.98%.
For Cc1cccc(C)c1OP(C)(=O)Nc1ccc(SC(F)(F)F)cc1 (stereo not given), the inhibition was inactive: -12.5%.
For Cc1ccc(Nc2c([N+](=O)[O-])cc([N+](=O)[O-])cc2[N+](=O)[O-])cc1, the inhibition was inactive: 22.9%.
With CP(=O)(Nc1ccccn1)Oc1ccc(Cl)cc1 (stereo not given) the inhibition was inactive: 9.2%.
O=[N+]([O-])c1cc([N+](=O)[O-])c(O)c([N+](=O)[O-])c1.c1ccc(Oc2ccncc2)cc1 was tested, and the inhibition was inactive: -27.7%.
For CCOC(=O)c1ccc(NP(C)(=O)Oc2ccc(OC)cc2)cc1 (stereo not given), the inhibition was inactive: -10.9%.
CCOP(C)(=S)SCC(=O)NC(C)C(=O)O (stereo not given) was tested, and the inhibition was inactive: -8.76%.
CP(=O)(Nc1ccccc1Br)Oc1ccccc1 (stereo not given) was tested, and the inhibition was inactive: 11.2%.
For COc1ccccc1OP(C)(=O)Nc1ccccc1 (stereo not given), the inhibition was inactive: -0.55%.
CP(=S)(Nn1cnnc1)Oc1ccccc1 (stereo not given) was tested, and the inhibition was inactive: -8.67%.
With CCOC(=O)c1ccc(NP(C)(=O)Oc2ccc(Cl)cc2)cc1 (stereo not given) the inhibition was inactive: 5.13%.
CP(=O)(OC12CC3CC(CC(C3)C1)C2)OC12CC3CC(CC(C3)C1)C2 was tested, and the inhibition was inactive: 8.92%.
In the case of Nc1ccc2c(ccc3cccnc32)n1.O=[N+]([O-])c1cc([N+](=O)[O-])c(O)c([N+](=O)[O-])c1, the inhibition is reported as inactive: 0.36%.
For O=C(OCCCN1CCCC1)C(O)(c1ccccc1)C1CCCCC1 (stereo not given), the inhibition was inactive: 11.1%.
For COc1ccccc1OP(C)(=O)Nc1c(C)n(C)n(-c2ccccc2)c1=O (stereo not given), the inhibition was inactive: -12.4%.
With CCc1ccc(OP(C)(=O)Nc2cccnc2)cc1 (stereo not given) the inhibition was inactive: 9.27%.
CP(=O)(Oc1ccccc1)N1CCOC1=O (stereo not given) was tested, and the inhibition was inactive: -1.41%.
With COc1ccc(OP(C)(=O)Nc2ccc(Br)cc2)cc1 (stereo not given) the inhibition was inactive: -6.95%.
CCN(CC)CC(O)COC(=O)C(O)(c1ccccc1)C1CCCCC1 (stereo not given) was tested, and the inhibition was inactive: 0.63%.
For CN(C)C(=O)c1c([N+](=O)[O-])cc([N+](=O)[O-])cc1[N+](=O)[O-], the inhibition was inactive: 48.1%.
COc1ccccc1OP(C)(=O)Nc1ccccc1Br (stereo not given) was tested, and the inhibition was inactive: 0.1%.
CC(C)(C)c1ccc(OP(C)(=O)O)cc1 was tested, and the inhibition was inactive: -4.97%.
In the case of CP(=O)(Nc1ccc(Cl)cc1)Oc1ccc(F)cc1 (stereo not given), the inhibition is reported as inactive: -8.07%.
With COc1ccc(OP(C)(=O)Nc2ccccn2)cc1 (stereo not given) the inhibition was inactive: -7.96%.
With CN(C)CCOC(=O)C(O)(c1ccccc1)C1CCCC1 (stereo not given) the inhibition was inactive: -0.07%.
For COc1ccccc1OP(C)(=O)Nc1ccc(Br)cc1 (stereo not given), the inhibition was inactive: -7.46%.
In the case of COc1ccccc1OP(C)(=O)Nc1ccc(C)cc1C (stereo not given), the inhibition is reported as inactive: -2.8%.
CP(=O)(Nc1ccccn1)Oc1ccccc1 (stereo not given) was tested, and the inhibition was inactive: -10.3%.
CCc1ccc(OP(C)(=O)O)cc1 was tested, and the inhibition was inactive: -6.65%.
For Cc1c(NP(C)(=O)Oc2ccc(C(C)C)cc2)c(=O)n(-c2ccccc2)n1C (stereo not given), the inhibition was inactive: -17.8%.
In the case of O=[N+]([O-])c1cc([N+](=O)[O-])c(Nc2ccccn2)c([N+](=O)[O-])c1, the inhibition is reported as active: 89.9%.
In the case of COc1ccccc1OP(C)(=O)Nc1ccc(C)c(C)c1 (stereo not given), the inhibition is reported as inactive: -2.94%.
COc1ccc(OP(C)(=O)Nc2ccccc2Br)cc1 (stereo not given) was tested, and the inhibition was inactive: -2.45%.
With Cc1cc(C)cc(OP(C)(=O)Nc2cccc(C(F)(F)F)c2)c1 (stereo not given) the inhibition was inactive: 8.1%.
With O=C1C(O)=C([N+](=O)[O-])C(=O)C(O)=C1[N+](=O)[O-] the inhibition was inactive: 11%.
In the case of CCCCCCCCCCCCCCCC1C[N+](C)(C)CCOP(C)(=O)O1 (stereo not given), the inhibition is reported as inactive: 12.4%.
CP(=O)(Nc1ccc(Cl)cc1Cl)Oc1ccccc1 (stereo not given) was tested, and the inhibition was inactive: -13.8%.
In the case of CP(=O)(OCCOc1ccccc1)OCCOc1ccccc1, the inhibition is reported as inactive: 0.75%.
With CCOC(=O)c1ccc(NP(C)(=O)Oc2ccc(F)cc2)cc1 (stereo not given) the inhibition was inactive: -13.1%.
In the case of COc1ccc(OP(C)(=O)Nc2ccc(SC(F)(F)F)cc2)cc1 (stereo not given), the inhibition is reported as inactive: 8.54%.
CP(=O)(Nc1ccccc1)Oc1ccc(F)cc1 (stereo not given) was tested, and the inhibition was inactive: -20.9%.
For CCCCCOc1ccc(NP(C)(=O)Oc2ccc(Cl)cc2Cl)cc1 (stereo not given), the inhibition was inactive: 15.7%.
O=[N+]([O-])c1cc([N+](=O)[O-])c(OC2CCCCC2O)c([N+](=O)[O-])c1 (stereo not given) was tested, and the inhibition was inactive: -32.3%.
Cc1c([N+](=O)[O-])cc([N+](=O)[O-])c(Br)c1[N+](=O)[O-] was tested, and the inhibition was inactive: 5.38%.
For CCN(CC)CCCOC(=O)C(O)(c1ccccc1)C1CCCCC1 (stereo not given), the inhibition was inactive: 6.51%.
With CP(=O)(Nc1ccccc1F)Oc1ccccc1 (stereo not given) the inhibition was inactive: -4.23%.
For CC(C)c1ccc(OP(C)(=O)Nc2ccc(SC(F)(F)F)cc2)cc1 (stereo not given), the inhibition was inactive: 19.9%.
In the case of O=[N+]([O-])c1cc([N+](=O)[O-])c(Nc2ccc(Cl)cc2)c([N+](=O)[O-])c1, the inhibition is reported as inactive: 23.9%.
For COc1ccc2c(c1O)-c1c(O)c(OC)cc3c1[C@H](C2)[N+](C)(C)CC3.O=[N+]([O-])c1cc([N+](=O)[O-])c([O-])c([N+](=O)[O-])c1[O-], the inhibition was inactive: 34.2%.
With O=C(OC1CN2CCC1CC2)c1ccc([N+](=O)[O-])cc1 (stereo not given) the inhibition was inactive: 6.94%.
In the case of O=C(OCCN1CCN(CCOCc2ccccc2)CC1)C(O)(c1ccccc1)c1ccccc1, the inhibition is reported as inactive: -10.6%.
With CCOP(C)(=S)SCC(=O)NC(C)(CC)C(=O)O (stereo not given) the inhibition was inactive: -6.34%.
With CP(=O)(Nc1ccc(SC(F)(F)F)cc1)Oc1ccc(F)cc1 (stereo not given) the inhibition was inactive: -3.27%.
In the case of Cc1ccccc1NP(C)(=O)Nc1ccccc1C, the inhibition is reported as inactive: 3.81%.
In the case of CP(=O)(Nc1ccc2c(c1)OCCO2)Oc1ccccc1 (stereo not given), the inhibition is reported as inactive: 12%.
In the case of CN(C)CCOC(=O)C(O)(c1ccccc1)C1CCCCC1 (stereo not given), the inhibition is reported as inactive: 5.51%.
For COc1ccc(NP(C)(=O)Oc2ccccc2OC)cc1 (stereo not given), the inhibition was inactive: 2.6%.
For COc1ccc(OP(C)(=O)Nc2cccc(Br)c2)cc1 (stereo not given), the inhibition was inactive: 0.96%.
For Cc1c(C(c2ccc3c(c2)OCO3)c2c(C)n(C)n(-c3ccccc3)c2=O)c(=O)n(-c2ccccc2)n1C.O=[N+]([O-])c1cc([N+](=O)[O-])c(O)c([N+](=O)[O-])c1, the inhibition was inactive: -7.61%.
With O=[N+]([O-])c1ccc(OP2(=O)COCCO2)cc1 (stereo not given) the inhibition was inactive: 5.77%.
For O=[N+]([O-])c1cc([N+](=O)[O-])c(NCC2CCS(=O)(=O)C2)c([N+](=O)[O-])c1 (stereo not given), the inhibition was inactive: 9.48%.
For Cc1cc(-c2cccc3ccccc23)c(C)cn1.O=[N+]([O-])c1cc([N+](=O)[O-])c(O)c([N+](=O)[O-])c1, the inhibition was inactive: 5.68%.
